The supplement of paper PMC3578754
Fold change is the IC50 on the isolate divided by the IC50 on a reference virus; 1 = unchanged, higher = more resistant. Changes are given against the subtype B consensus. No active / inactive call. The values were gathered from many studies (numbered anew) with different assays, which the source does not name. Most viruses are clinical isolates; some are laboratory strains or clones with known resistance changes. Isolates with mixed residues are left out; stretches that were not sequenced show no change. Round top values that many isolates share are read here as limits; other very high values and 0.1 may be limits too.

Experiments:
Experiment in all cases: fold change of IC50 against reference virus; higher = more resistant
delavirdine = compound: CC(C)Nc1cccnc1N1CCN(C(=O)c2cc3cc(NS(C)(=O)=O)ccc3[nH]2)CC1 [delavirdine]
Description: (§1)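 Cell-culture drug susceptibility tests of virus bearing the reverse transcriptase of each isolate, gathered from many studies.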

nevirapine = compound: Cc1ccnc2c1NC(=O)c1cccnc1N2C1CC1 [nevirapine]
Description: as §1

stavudine = compound: Cc1cn([C@H]2C=C[C@@H](CO)O2)c(=O)[nH]c1=O [stavudine]
Description: as §1

zidovudine = compound: Cc1cn([C@H]2C[C@H](N=[N+]=[N-])[C@@H](CO)O2)c(=O)[nH]c1=O [zidovudine]
Description: as §1

zalcitabine = compound: Nc1ccn([C@H]2CC[C@@H](CO)O2)c(=O)n1 [zalcitabine]
Description: as §1

abacavir = compound: Nc1nc(NC2CC2)c2ncn([C@H]3C=C[C@@H](CO)C3)c2n1 [abacavir]
Description: as §1

efavirenz = compound: O=C1Nc2ccc(Cl)cc2[C@@](C#CC2CC2)(C(F)(F)F)O1 [efavirenz]
Description: as §1

didanosine = compound: O=c1[nH]cnc2c1ncn2[C@H]1CC[C@@H](CO)O1 [didanosine]
Description: as §1

Row | Test System | fold change of IC50 against reference virus (delavirdine) | fold change of IC50 against reference virus (nevirapine) | fold change of IC50 against reference virus (stavudine) | fold change of IC50 against reference virus (zidovudine) | fold change of IC50 against reference virus (zalcitabine) | fold change of IC50 against reference virus (abacavir) | fold change of IC50 against reference virus (efavirenz) | fold change of IC50 against reference virus (didanosine)
1 | HIV-1 isolate 551 (reverse transcriptase changes: D123E I135T V179I M184V Y188L I202V F214L, study 40) | 7 | 333 | 1 | 5 | 2 | 3 | 110 | 3
2 | HIV-1 isolate 555 (reverse transcriptase changes: K20R M41L S48P K49R D76N N81Y K102Q K122E I135T Q174H D177E V179I M184V Q207E R211K T215Y L228H L260V A272S R284K, study 40) | 1 | 1 | 3 | 488 | 3 | 9 | 1 | 2
3 | HIV-1 isolate 556 (reverse transcriptase changes: K102Q S162C M184V K277R, study 110) | 0.6 | 0.6 | 0.8 | 0.4 | 1.4 | 3.8 | 0.6 | 0.9
4 | HIV-1 isolate 597 (reverse transcriptase changes: P4S E6D K20R M41L K43N E44D T69D V75M A98S K102Q V118I K122D K166R Y181C G190A T200M Q207E L210W R211K T215S E224D L228R, study 40) | 56 | 314 | 3 | 688 | 3 | 4 | 51 | 2
5 | HIV-1 isolate 609 (reverse transcriptase changes: K102Q K122E D177E I178M M184V V245E A272P K277R, study 112) | 1 | 1.1 | 1 | 0.6 | 2.2 | 4.6 | 1 | 1.6
6 | HIV-1 isolate 613 (reverse transcriptase changes: T27S I31V K64H D67N T69N K70R K122E M184V I195L D218E K219Q L228H V245M E248V K249Q A288T I293V, study 112) | 0.7 | 0.3 | 2.3 | 7.9 | 2.3 | 7.7 | 0.4 | 1.8
7 | HIV-1 isolate 644 (reverse transcriptase changes: K70R K103R M184V R211K F214L, study 28) | 0.6 | 0.8 | 0.8 | 0.6 | 2.1 | 3.6 | 0.6 | 1.4
8 | HIV-1 isolate 651 (reverse transcriptase changes: K20R M41L K122E I135T M184V T200A R211K T215Y A272P I293V E297K, study 112) | 0.6 | 0.9 | 1.6 | 6.5 | 2.2 | 6.7 | 0.6 | 1.4
9 | HIV-1 isolate 659 (reverse transcriptase changes: S68N I135T M184V T200A Q207G T215D, study 28) | 0.6 | 1.1 | 0.7 | 0.7 | 1.6 | 2.7 | 0.5 | 1.3
10 | HIV-1 isolate 667 (reverse transcriptase changes: K102Q D123E M184V T200A Q207E T215Y A272P K277R I293V, study 119) | 0.2 | 0.4 | 1.1 | 1 | 2.2 | 6.8 | 0.3 | 2.1
11 | HIV-1 isolate 690 (reverse transcriptase changes: M41L M184V G196E T200K, study 28) | 0.4 | 0.7 | 0.9 | 0.8 | 1.9 | 4.3 | 0.2 | 1.4
12 | HIV-1 isolate 723 (reverse transcriptase changes: K49R L92F A98S K102Q K103R D121H S162D K166R V179I M184V T200A R211K F214L, study 28) | 0.5 | 1 | 1 | 1 | 2.3 | 4.2 | 0.2 | 1.6
13 | HIV-1 isolate 770 (reverse transcriptase changes: M41L E44D E53D A98S K122A E169D D177E M184V G196E T200A Q207E L210W T215Y, study 112) | 0.2 | 0.5 | 1.7 | 4.4 | 2.4 | 7.7 | 0.3 | 1.5
14 | HIV-1 isolate 788 (reverse transcriptase changes: Q197K Q207E R211K L283I I293V E297K E312A, study 127) | 2.1 | 1.6 | 1.1 | 1.3 | 1.1 | 0.7 | 1.3 | 1.1
15 | HIV-1 isolate 834 (reverse transcriptase changes: K20R K101Q K122E I142V T165I M184V K277R A288S I293V, study 119) | 1.4 | 2.2 | 0.9 | 0.9 | 1.9 | 3.1 | 2.1 | 1.6
